PMC2596486 (PLoS ONE, 2008)

Biological target: HA2 subunit of H5 rHA (band on the reducing immunoblot) (Influenza A virus …, UniProt A5A5M5, strain)
Assay: far-Western, overlay or dot blot
Conditions: one partner purified

B1: CR6323 human IgG1 (antibody, V domains shown)
VH: EVQLVESGAEVKKPGSSVKVSCKASGGTFSSYGISWVRQAPGQGLEWMGDIIGMFGSTNYAQNFQGRLTITADESTSTAYMELSSLRSEDTAVYYCARSSGYYPAYLPHWGQGTLVTVSS
VL: not shown
B1: binds.
